A mixed list of measured activities; the numbers were collected in NIAID ChemDB.

All rows: tests in culture; species: Aspergillus flavus

MIC50, MIC90 and the like: level of inhibition, or share of isolates inhibited. Conditions beyond the fields shown may differ between rows. Blank or dashed fields: not listed here.

| smiles | strain or isolate | read by | endpoint | result |
|---|---|---|---|---|
| Cc1nc(OCc2nc(-c3ccccc3)n[nH]2)c2ccccc2n1 | MTCC 277 | - | MIC100 | 25 µg/mL |
| Cc1ccc(OCc2n[nH]c(=S)n2N2C(=O)CSC23CCc2ccccc23)cc1 | - | - | MIC100 | 12.5 µg/mL |
| O=C(c1ccccc1)C(c1ccccc1)n1ccnc1 | - | broth dilution | MFC | 128 µg/mL |
| CC(C)CC1NC(=O)CC(CCCCCCCCC(C)O)OC(=O)C(CC(C)C)NC(=O)C(CC(C)C)NC(=O)C(CC(C)C)NC(=O)C(C(C)C)NC(=O)C(CC(=O)O)NC(=O)C(CC(C)C)NC1=O | ATCC 11496 | visual reading | MFC | 16 µg/mL |
| O=C1CSC2(CCc3ccccc32)N1n1c(-c2ccc([N+](=O)[O-])cc2)n[nH]c1=S | - | - | MIC100 | 12.5 µg/mL |
| C[C@@H](c1ncncc1F)[C@](O)(Cn1cncn1)c1ccc(F)cc1F | - | broth dilution | MIC50 | 0.5 µg/mL |
| FC(F)(F)c1nc(OCc2nc(-c3ccco3)n[nH]2)c2ccccc2n1 | MTCC 277 | - | MIC100 | 12.5 µg/mL |
| CC(C)C[C@H](N)C(=O)O | MRCM 23135 | broth dilution | MFC100 | >18000 µg/mL |
| COc1cc(-c2n[nH]c(COc3ncnc4ccccc34)n2)cc(OC)c1OC | MTCC 277 | - | MIC100 | 6.25 µg/mL |
| c1ccc(C(c2ccccc2)n2ccnc2)cc1 | - | broth dilution | MFC | 0.5 µg/mL |
| CC(=O)N1CCN(c2ccc(OC[C@H]3CO[C@](Cn4ccnc4)(c4ccc(Cl)cc4Cl)O3)cc2)CC1 | Species complex | - | MIC90 | 1 µg/mL |
| Clc1ccc(C(c2ccccc2)n2ccnc2)cc1 | - | broth dilution | MFC | 0.5 µg/mL |
| O=C1CSC2(CCc3ccccc32)N1n1c(-c2ccc(Cl)cc2Cl)n[nH]c1=S | - | - | MIC100 | 12.5 µg/mL |
| COc1ccc(-c2n[nH]c(COc3nc(C)nc4ccccc34)n2)cc1OC | MTCC 277 | - | MIC100 | 50 µg/mL |
| CCCCCCCCCCCCOC(=O)[C@]1(O)C[C@@H](O)[C@@H](O)[C@H](OC(=O)/C=C/c2ccc(O)c(O)c2)C1 | AMP 9 | - | MIC80 | >1500 µg/mL |
| Cc1nc(OCc2nc(-c3cccs3)n[nH]2)c2ccccc2n1 | MTCC 277 | - | MIC100 | 25 µg/mL |
| Clc1ccc(C(c2ccccc2)N2CCN(CCn3cncn3)CC2)cc1 | - | broth dilution | MFC | >256 µg/mL |
| O=C1CSC2(CCc3ccccc32)N1n1c(-c2ccc(Cl)cc2)n[nH]c1=S | - | - | MIC100 | 12.5 µg/mL |
| CC(C)CC(O)C(=O)O | MRCM 24832 | broth dilution / visual reading | MFC100 | >72000 µg/mL |
| CCCCCOc1ccc(-c2cc(-c3ccc(C(=O)N[C@H]4C[C@@H](O)[C@@H](O)NC(=O)[C@@H]5[C@@H](O)[C@@H](C)CN5C(=O)[C@H]([C@H](O)CC(N)=O)NC(=O)[C@H]([C@H](O)[C@@H](O)c5ccc(O)c(OS(=O)(=O)O)c5)NC(=O)[C@@H]5C[C@@H](O)CN5C(=O)[C@H]([C@@H](C)O)NC4=O)cc3)no2)cc1 | - | broth dilution | MIC50 | 0.03 µg/mL |

Again, the opening 2 rows:

| smiles | strain or isolate | read by | endpoint | result |
|---|---|---|---|---|
| Cc1nc(OCc2nc(-c3ccccc3)n[nH]2)c2ccccc2n1 | MTCC 277 | - | MIC100 | 25 µg/mL |
| Cc1ccc(OCc2n[nH]c(=S)n2N2C(=O)CSC23CCc2ccccc23)cc1 | - | - | MIC100 | 12.5 µg/mL |